Measured values reported in paper PMC7397076 (Molecules, 2020).

System: Vero cell line
Test: Cytotoxicity test, MTT assay
Format: cell-based, African green monkey
Conditions: Vero IC50 / M. tuberculosis MIC

Compound	SI (IC50/MIC)
c1ccc(Oc2ccc(-c3nnco3)cc2)cc1 [Compound 4, 2-(4-Phenoxyphenyl)-1,3,4-oxadiazole]	162.95
c1ccc(Oc2ccc(-c3nnc(-c4cccs4)o3)cc2)cc1 [Compound 6k, 2-(4-Phenoxyphenyl)-5-(thiophen-2-yl)-1,3,4-oxadiazole]	40.59
c1ccc(Oc2ccc(-c3nnc(-c4ccc(Oc5ccccc5)cc4)o3)cc2)cc1 [Compound 6l, 2,5-bis(4-Phenoxyphenyl)-1,3,4-oxadiazole]	79.15
c1ccc(Oc2ccc(-c3nnc(-c4ccncc4)o3)cc2)cc1 [Compound 6i, 2-(4-Phenoxyphenyl)-5-(pyridin-4-yl)-1,3,4-oxadiazole]	68.21
O=C(N/N=C/c1cccc2ccccc12)c1ccc(Oc2ccccc2)cc1 [Compound 8g, (E)-N′-(Naphthalen-1-ylmethylene)-4-phenoxybenzohydrazide]	73.67
NNC(=O)c1ccc(Oc2ccccc2)cc1 [Compound 3, 4-Phenoxybenzohydrazide]	93.83
c1ccc(Oc2ccc(-c3nnc(-c4cccnc4)o3)cc2)cc1 [Compound 6h, 2-(4-Phenoxyphenyl)-5-(pyridin-3-yl)-1,3,4-oxadiazole]	65.29
